Test results published in patent US6759409B2, “Inhibitors of papilloma virus” (Boehringer Ingelheim (Canada) Ltd., priority 2000, dated 2004).

Amino acid sequences for entries named in this document (tags omitted).
UniProt P04015, whole entry: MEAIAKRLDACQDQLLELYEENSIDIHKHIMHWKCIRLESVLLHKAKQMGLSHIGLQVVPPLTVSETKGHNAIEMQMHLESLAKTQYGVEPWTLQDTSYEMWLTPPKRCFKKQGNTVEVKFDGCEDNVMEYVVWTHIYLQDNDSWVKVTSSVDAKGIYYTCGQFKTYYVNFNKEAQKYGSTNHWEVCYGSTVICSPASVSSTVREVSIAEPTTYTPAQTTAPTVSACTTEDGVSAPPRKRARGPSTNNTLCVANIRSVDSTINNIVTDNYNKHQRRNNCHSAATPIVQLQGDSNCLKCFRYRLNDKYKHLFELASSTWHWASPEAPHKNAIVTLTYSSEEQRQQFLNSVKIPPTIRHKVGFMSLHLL

Target: HPV-11 E1-E2-DNA origin of replication complex (Human papillomavirus 11, UniProt P04015)
Experiment: E2-dependent E1 DNA binding assay (E1-E2 DNA assay)
Details: tested form: Na salt
Method: This particular assay determines the ability of a test compound to inhibit the activity (IC50) of HPV-11 DNA replication. More specifically, in the assay described herein, the inhibitory activity of the test compound is evaluated based on its ability to interfere with the E1-E2-DNA origin of replication interaction, thereby inhibiting initiation of viral DNA replication.
This assay was modeled on a similar assay for SV40 T Antigen described by McKay (J. Mol. Biol., 1981,145:471). A 400 bp radiolabeled DNA probe, containing the HPV-11 origin of replication (Chiang et al., 1992, Proc. Natl. Acad. Sci. USA 89:5799) was produced by pcr, using plasmid pBluescript™ SK encoding the origin (nucleotides 7886-61 of the HPV-11 genome in unique BAMH1 site) as template and primers flanking the origin. Radiolabel was incorporated as [^33P]dCTP. Binding assay buffer consisted of: 20 mM Tris pH 7.6, 100 mM NaCl, 1 mM DTT, 1 mM EDTA.
Other reagents used were protein A-SPA beads (type II, Amersham) and K72 rabbit polyclonal antiserum, raised against a peptide corresponding to the C-terminal 14 amino acids of HPV-11 E1. […] After an additional hour of incubation at room temperature, the reactions were centrifuged briefly to pellet the beads and the extent of complex formation was determined by scintillation counting on a Packard TopCount™. […]

Structure (SMILES) | IC50 (Table 1, racemic cis/cis isomer (form 1)) | IC50 (Table 8, racemic cis/cis isomer (form 2))
CC(=O)c1ccc(NC(=O)C2C(c3ccc(Cl)c(Cl)c3)OC3(C(=O)c4ccc(Br)cc4C3=O)C2C(=O)O)cc1 (centres unmarked) | 5 to 50 µM | 
O=C(Nc1ccc2c(c1)OCO2)C1C(c2ccc(Cl)c(Cl)c2)OC2(C(=O)c3ccccc3C2O)C1C(=O)O (centres unmarked) |  | 0.5 to 5 µM
